# Sequence variants of PSTVd loop 15 after infection

Reference: Wu et al. 2024, doi:10.1371/journal.ppat.1012142.

PSTVd intermediate strain, loop 15: wild type GGAAACCGCUACUAC, pool pattern GGAAACCGNNNNNNC; upper and lower strand joined, each 5' to 3', the first 7 letters being the upper strand, closing pairs included.

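A pool of all variants was put on leaves of three Nicotiana benthamiana plants. Samples came from the inoculated region at 5 days, the leaf margin at 10 and upper systemic leaves at 12.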

Values are reads per thousand in the sample; higher means more abundant, 0 means not found.
Each value is the mean of three plants.
"Pool" is the share in the plasmid pool used as inoculum, on the same scale.
The inoculated region was read from the minus strand, the other sites from the plus strand.
The authors trace changes outside the varied positions to PCR and sequencing errors or to mutation in the plant; presence does not show that a variant is infectious alone.
Wild type was 33.9 per thousand in the pool and the most common sequence in every sample (inoculated region 202, 200, 159; leaf margin 724, 746, 710; systemic leaves 856, 883, 880).
Samples held 43,870 to 66,106 reads, so the smallest values rest on one or two reads.

With GGAAACCGGUGUAUC (pool 0.160) the assay gave inoculated region 0.0856; leaf margin 0.00539; systemic leaves 0.
With GGAAACCGCUACACC (pool 0.176) the assay gave inoculated region 0.114; leaf margin 0.0134; systemic leaves 0.00537.
With GGAAACCGAUGAUGC (pool 0.320) the assay gave inoculated region 0.0505; leaf margin 0.0241; systemic leaves 0.
With GGAAACCGUUGCUCC (pool 0.192) the assay gave inoculated region 0.106; leaf margin 0.00539; systemic leaves 0.
With GGAAACCGAGCUUGC (pool 0.176) the assay gave inoculated region 0.113; leaf margin 0.0108; systemic leaves 0.00537.
With GGAAACCGUAAUUUC (pool 0.192) the assay gave inoculated region 0.307; leaf margin 0.116; systemic leaves 0.0492.
With GGAAACCGGUGCACC (pool 0.144) the assay gave inoculated region 0.0569; leaf margin 0.00742; systemic leaves 0.
With GGAAACCGGUUAUAC (pool 0.240) the assay gave inoculated region 0.264; leaf margin 0.0988; systemic leaves 0.0435.
With GGAAACCGGCAAAUC (pool 0.144) the assay gave inoculated region 0.100; leaf margin 0; systemic leaves 0.
With GGAAACCGAUAGUGC (pool 0.320) the assay gave inoculated region 0.243; leaf margin 0.137; systemic leaves 0.0695.
With GGAAACCGGGAGUGC (pool 0.224) the assay gave inoculated region 0.269; leaf margin 0.0813; systemic leaves 0.0357.
With GGAAACCGUAUUAUC (pool 0.208) the assay gave inoculated region 0.190; leaf margin 0.0187; systemic leaves 0.00537.
With GGAAACCGACAACUC (pool 0.224) the assay gave inoculated region 0.281; leaf margin 0.124; systemic leaves 0.0161.
With GGAAACCGUGCCUGC (pool 0.256) the assay gave inoculated region 0.0803; leaf margin 0.0121; systemic leaves 0.00537.
With GGAAACCGUGUGCAC (pool 0.192) the assay gave inoculated region 0.123; leaf margin 0; systemic leaves 0.00537.
With GGAAACCGACCUGGC (pool 0.176) the assay gave inoculated region 0.0798; leaf margin 0; systemic leaves 0.
With GGAAACCGUAAAUGC (pool 0.160) the assay gave inoculated region 0.330; leaf margin 0.110; systemic leaves 0.0540.
With GGAAACCGUCCCUGC (pool 0.224) the assay gave inoculated region 0.100; leaf margin 0.0175; systemic leaves 0.00537.
With GGAAACCGUUAUCCC (pool 0.176) the assay gave inoculated region 0.142; leaf margin 0; systemic leaves 0.
With GGAAACCGGAGUUUC (pool 0.208) the assay gave inoculated region 0.0893; leaf margin 0.0121; systemic leaves 0.00537.
With GGAAACCGUGAUUCC (pool 0.208) the assay gave inoculated region 0.318; leaf margin 0.0960; systemic leaves 0.0161.
With GGAAACCGUUUUCUC (pool 0.304) the assay gave inoculated region 0.108; leaf margin 0.0141; systemic leaves 0.
With GGAAACCGUACGACC (pool 0.240) the assay gave inoculated region 0.114; leaf margin 0.0108; systemic leaves 0.
With GGAAACCGUUCAGGC (pool 0.256) the assay gave inoculated region 0.0642; leaf margin 0; systemic leaves 0.
With GGAAACCGGACGGAC (pool 0.224) the assay gave inoculated region 0.152; leaf margin 0.0148; systemic leaves 0.
With GGAAACCGGUACUCC (pool 0.288) the assay gave inoculated region 0.0721; leaf margin 0.00742; systemic leaves 0.
With GGAAACCGCGUGAAC (pool 0.240) the assay gave inoculated region 0.0716; leaf margin 0.0195; systemic leaves 0.
With GGAAACCGCGGAAGC (pool 0.0960) the assay gave inoculated region 0.0922; leaf margin 0.00742; systemic leaves 0.
With GGAAACCGCCCCAGC (pool 0.144) the assay gave inoculated region 0.114; leaf margin 0.0357; systemic leaves 0.
With GGAAACCGCGGGAUC (pool 0.224) the assay gave inoculated region 0.108; leaf margin 0; systemic leaves 0.
With GGAAACCGGGGUUAC (pool 0.224) the assay gave inoculated region 0.0901; leaf margin 0.0134; systemic leaves 0.
With GGAAACCGGGGUCGC (pool 0.336) the assay gave inoculated region 0.0796; leaf margin 0.0187; systemic leaves 0.
With GGAAACCGCGGCGAC (pool 0.256) the assay gave inoculated region 0.153; leaf margin 0; systemic leaves 0.
With GGAAACCGACGACAC (pool 0.288) the assay gave inoculated region 0.0685; leaf margin 0; systemic leaves 0.00760.
With GGAAACCGCAGAUCC (pool 0.256) the assay gave inoculated region 0.117; leaf margin 0.0128; systemic leaves 0.
With GGAAACCGUGUCAAC (pool 0.256) the assay gave inoculated region 0.0913; leaf margin 0; systemic leaves 0.
With GGAAACCGACUAAUC (pool 0.256) the assay gave inoculated region 0.0732; leaf margin 0.0134; systemic leaves 0.
With GGAAACCGAUUAUCC (pool 0.336) the assay gave inoculated region 0.0991; leaf margin 0.0267; systemic leaves 0.
With GGAAACCGUACAAAC (pool 0.144) the assay gave inoculated region 0.0497; leaf margin 0.0208; systemic leaves 0.00537.

The last 3 entries again:

| sequence | pool | inoculated region | leaf margin | systemic leaves |
|---|---|---|---|---|
| GGAAACCGACUAAUC | 0.256 | 0.0732 | 0.0134 | 0 |
| GGAAACCGAUUAUCC | 0.336 | 0.0991 | 0.0267 | 0 |
| GGAAACCGUACAAAC | 0.144 | 0.0497 | 0.0208 | 0.00537 |